Anti-infective test results gathered from many reports (values: NIAID ChemDB through PubChem).

Common to all: whole-cell or culture tests; agent: Mycobacterium tuberculosis

a–b is a range or a potency band. Blank or dashed fields: not listed here. Percent inhibition refers to the dose given; in toxicity tests it is the harm to the cells. MIC bound comes from a single tested concentration. Conditions beyond the fields shown may differ between rows. A number after MIC or MFC names an inhibition level or a share of isolates.

compound	measure	read by	changes	strain	tested at	result
Cc1ccc(C)n1-c1ccc(C(=O)NN2C(=O)c3cccc([N+](=O)[O-])c3C2=O)cc1	MIC	resazurin	-	H37Rv	-	6.25 µg/mL
CCCCN(CCCC)CCNc1ccc(NS(=O)(=O)c2ccccc2)c2sc3ccccc3c(=O)c12	inhibition	BACTEC	-	H37Rv	12.5 µg/mL	99%
Cc1cccc(OC(=O)c2ccc(N)cc2O)c1	MIC	-	-	H37Rv (streptomycin-resistant)	-	0.005 µg/mL
O=C1N(Cl)C(=O)C(c2ccccc2)(c2ccc(F)cc2)N1Cl	inhibition	BACTEC	-	H37Rv	12.5 µg/mL	0%
CCCCCc1ccc(Oc2ccccc2C#N)c(O)c1	MIC100	-	-	-	-	2.5 µg/mL
CC(=O)c1cc([N+](=O)[O-])c(N2CCC(C)CC2)s1	MIC	resazurin	-	H37Rv	-	>100 µg/mL
NC1=C(O)C(=O)C(c2c[nH]c3ccc(OCc4ccccc4)cc23)O1	inhibition	BACTEC	-	H37Rv	12.5 µg/mL	30%
COc1ccc(N2C(=O)CCNC2=S)cc1	MIC	-	-	H37Rv	-	1.3 µg/mL
CCCCCc1ccc(Oc2cccnc2)c(O)c1	MIC100	-	-	-	-	3.13 µg/mL
Nc1ccccc1C1SCC(=O)N1NC(=O)c1ncc2cc(C(F)(F)F)ccc2n1	MIC	visual reading	-	H37Rv	-	2.17 µM
CO[C@H]1/C=C/O[C@@]2(C)Oc3c(C)c(O)c4c(O)c(c(/C=N/N5CCN(C)CC5)c(O)c4c3C2=O)NC(=O)/C(C)=C\C=C\[C@H](C)[C@H](O)[C@@H](C)[C@@H](O)[C@@H](C)[C@H](OC(C)=O)[C@@H]1C	MIC	fluorescence	-	H37Rv	-	0.02 µg/mL
CCCCOc1ccc(NC(=S)NCCC(=O)O)cc1	MIC	-	-	H37Rv	-	2.5 µg/mL
Nc1ccc(C(=O)Oc2ccccc2)c(O)c1	MIC	-	-	H37Rv	-	0.005 µg/mL
O=c1sn(-c2ccc(F)c(Cl)c2)c(=O)n1C1Cc2ccccc2C1	MIC	broth dilution	-	H37Rv	-	6.25 µg/mL
O=[N+]([O-])c1cn2c(n1)OC[C@H](OCc1ccc(OC(F)(F)F)cc1)C2	MIC	resazurin	-	ss18b	-	0.156 µg/mL
C[C@@H]1CN(c2c(F)c(N)c3c(=O)c(C(=O)O)cn(C4CC4)c3c2F)C[C@H](C)N1	MIC50	-	-	18 isolates	-	0.25 µg/mL
CC[C@@H](C)[C@@H]1NC(=O)[C@@H](Cc2ccccc2)CC(=O)CN(C)C(=O)[C@H]([C@H](C)CC)NC(=O)[C@@H](Cc2ccccc2)OC(=O)CN(C)C1=O	MIC	-	-	-	-	6–12 µg/mL
Cc1ccc(C)n1-c1nc(-c2ccc(F)cc2)cs1	MIC	resazurin	-	H37Rv	-	0.2 µg/mL
Cn1c(=O)sn(-c2cccc3ccccc23)c1=O	MIC	broth dilution	-	H37Rv	-	12.5 µg/mL
NC(=O)c1nccnc1NCc1cccc(C(F)(F)F)c1	MIC	resazurin / fluorescence	-	H37Rv	-	42 µM
C=CC(C)(C)c1c2c(c(O)c3ccc(=O)oc13)C=CC(C)(C)O2	MIC	-	-	-	-	50 µg/mL
CO[C@H]1/C=C/O[C@@]2(C)Oc3c(C)c(O)c4c(=O)c(c5oc6cc(N7CCN(CC(C)C)CC7)cc(=O)c6nc5c4c3=C2O)NC(=O)/C(C)=C\C=C\[C@H](C)[C@H](O)[C@@H](C)[C@@H](O)[C@@H](C)[C@H](O)[C@@H]1C	MIC	-	-	H37Rv	-	0.017 µg/mL
CC1=C(O)C(C)(Cc2cccc(C(=O)c3ccccc3)c2)SC1=O	MIC90	-	-	H37Rv	-	128 µM
O=C(O)CCNC(=S)Nc1ccccc1	MIC	-	-	H37Rv	-	2.5 µg/mL
O=C1C=CC2(CCC23C=CC(=O)O3)O1	inhibition	BACTEC	-	H37Rv	12.8 µg/mL	77%
CCN1CCN(c2cc(=O)c3nc4c(oc3c2)c2c(=O)c3c(O)c(C)c5c(c34)=C(O)[C@@](C)(O/C=C/[C@H](OC)[C@@H](C)[C@@H](OC(C)=O)[C@H](C)[C@H](O)[C@H](C)[C@@H](O)[C@@H](C)/C=C/C=C(/C)C(=O)N2)O5)CC1	MIC	-	-	H37Rv	-	0.002 µg/mL
CCCCCc1ccc(Oc2cnccc2C(=O)O)c(O)c1	MIC100	-	-	-	-	25 µg/mL
O=C(NN1C(=O)CSC1c1ccc(I)cc1Br)c1ncc2cc(C(F)(F)F)ccc2n1	MIC	visual reading	-	H37Rv	-	3.4 µM
CC(C(N)=S)c1nc2ncccc2[nH]1	MIC	-	-	H37Rv	-	31 µg/mL
CC(=O)CCCCC(=O)Nc1ccc(CC(NC(=O)OC(C)(C)C)C(=O)NCC(=O)OCc2ccccc2)cc1	inhibition	resazurin	-	H37Rv	6.25 µg/mL	-1%
CCc1nc2ccccc2n1CCCCNc1ccc(OC)cc1	MIC99	turbidity / fluorescence	-	H37Rv	-	1.4 µM
Cc1ccc(C)n1-c1ccc(C(=O)NN2C(=O)c3ccc([N+](=O)[O-])cc3C2=O)cc1	MIC	resazurin	-	H37Rv	-	6.25 µg/mL
CCCCCCCCNc1cccc2c1C(=O)c1ccccc1C2=O	inhibition	BACTEC	-	H37Rv	12.5 µg/mL	-2%
NC(=O)c1cnccn1	MIC	resazurin / fluorescence	-	H37Rv	-	1.25 µg/mL
CC1CCCN(c2ccc([N+](=O)[O-])s2)C1	MIC	resazurin	-	H37Rv	-	6.25 µg/mL
Cc1c(N=Nc2ccc(Br)cc2)c(-c2ccccc2)nn1C(=S)S	MIC	-	-	INH-r	-	12.5 µg/mL
CC(C)COc1ccc(NC(=S)Nc2ccc(-c3ccccn3)cc2)cc1	MIC	-	-	H37RV (TB-1 -R)	-	>50 µg/mL
CC1=C(O)C(C)(CCC(C)CCCC(C)C)SC1=O	MIC50	-	-	H37Rv	-	22 µM
O=C1c2ccccc2C(=O)c2sc(Nc3ccc(Cl)cc3)nc21	MIC bound	BACTEC	-	H37Rv	-	≤12.5 µg/mL
CC(C)=CCC/C(C)=C/CC/C(C)=C/CC1(C)SC(=O)C(C)=C1O	MIC90	-	-	H37Rv	-	29 µM
CCOC(=O)CSc1nnc(-c2ccc([N+](=O)[O-])s2)s1	inhibition	resazurin	-	H37Rv	6.25 µg/mL	58%
CO[C@H]1/C=C/O[C@@]2(C)Oc3c(C)c(O)c4c(=O)c(c5oc6cc(N7CCN(C(C)C)CC7)cc(=O)c6nc5c4c3=C2O)NC(=O)/C(C)=C\C=C\[C@H](C)[C@H](O)[C@@H](C)[C@@H](O)[C@@H](C)[C@H](OC(C)=O)[C@@H]1C	MIC	-	-	H37Rv	-	0.017 µg/mL
Cc1noc(C)c1-n1sc(=O)n(-c2ccc(F)cc2)c1=O	MIC	broth dilution	-	H37Rv	-	25 µg/mL
CCCN1CCN(c2cc(=O)c3nc4c(oc3c2)c2c(=O)c3c(O)c(C)c5c(c34)=C(O)[C@@](C)(O/C=C/[C@H](OC)[C@@H](C)[C@@H](OC(C)=O)[C@H](C)[C@H](O)[C@H](C)[C@@H](O)[C@@H](C)/C=C/C=C(/C)C(=O)N2)O5)CC1	MIC	-	-	H37Rv	-	0.07 µg/mL
CC1CCCCN1.CC1CCCCN1C(=S)S	MIC	-	-	CS-R	-	3.1 µg/mL
CO[C@H]1/C=C/O[C@@]2(C)Oc3c(C)c(O)c4c(=O)c(c5oc6cc(N7CCN(C=O)CC7)cc(=O)c6nc5c4c3=C2O)NC(=O)/C(C)=C\C=C\[C@H](C)[C@H](O)[C@@H](C)[C@@H](O)[C@@H](C)[C@H](OC(C)=O)[C@@H]1C	MIC	-	-	H37Rv	-	0.3 µg/mL
CCCCCc1ccc(Oc2ccccc2O)c(O)c1	MIC100	-	-	-	-	12.5 µg/mL
O=c1sn(-c2ccccc2C(F)(F)F)c(=O)n1CC1CC1	MIC	broth dilution	-	H37Rv	-	25 µg/mL
C=C/C(C)=C/[C@@]1(C)SC(=O)C(C)=C1O	MIC	-	-	Isolate M304	-	20 µg/mL
CC(=O)Oc1ccn2nc(C)c(Br)c2c1Br	inhibition	resazurin	-	H37Rv	6.25 µg/mL	3%
Cc1ccc(/C=C(\C(N)=S)c2nc3ncccc3[nH]2)c(C)c1	MIC	-	-	193	-	7.8 µg/mL
N#CC1C=Cc2c(ccc3cccnc23)N1C(=O)c1ccccc1	inhibition	BACTEC	-	H37Rv	12.5 µg/mL	43%
CCOC(=O)c1cc(C(=O)c2ccc(F)cc2)n2ccc(C(=O)OC(C)C)cc12	MIC	resazurin	-	H37Rv	-	1 µg/mL
CCCCOC(=O)CSc1nnc(-c2ccc([N+](=O)[O-])s2)s1	inhibition	resazurin	-	H37Rv	6.25 µg/mL	100%
Cc1c(-c2cc(-c3ccccc3)n[nH]c2=O)c2ccccc2n1C	inhibition	BACTEC	-	H37Rv	6.25 µg/mL	86%
CCOCCN1CCN(c2cc(=O)c3nc4c(oc3c2)c2c(=O)c3c(O)c(C)c5c(c34)=C(O)[C@@](C)(O/C=C/[C@H](OC)[C@@H](C)[C@@H](OC(C)=O)[C@H](C)[C@H](O)[C@H](C)[C@@H](O)[C@@H](C)/C=C/C=C(/C)C(=O)N2)O5)CC1	MIC	-	-	H37Rv	-	0.07 µg/mL
COc1ccn2nc(C)c(C(=O)NCc3ccc(-c4ccc(OC(F)(F)F)cc4)c(OC)c3)c2c1	MIC	fluorescence	-	H37Rv	-	0.007 µg/mL
COC(=O)C1=C(O)C2N=CC=CC2C(=O)N1.Cl	inhibition	BACTEC	-	H37Rv	12.5 µg/mL	8%
C=CC(C)(C)c1cc(/C=C/C(=O)c2ccc(O)cc2)c(OC)cc1O	MIC	-	-	-	-	7.1 µg/mL
COc1ccn2nc(C)c(C(=O)NCc3ccc(-c4ccc(OC(F)(F)F)cc4)c(F)c3)c2c1	MIC	fluorescence	Rifampicin-resistant	H37Rv	-	<0.002 µg/mL
NNC(=O)CSc1ncnc2nc[nH]c12	MIC bound	BACTEC	-	H37Rv	-	>12.5 µg/mL
O=[N+]([O-])c1cc(/C=N\n2c(Cc3cccs3)n[nH]c2=S)ccc1O	inhibition	-	-	H37Rv (ATCC 27294)	6.25 µg/mL	87%
CC1CCN(c2ccc([N+](=O)[O-])s2)CC1	MIC	resazurin	-	ss18b	-	12.5 µg/mL
CCOc1ccc(N2C(=O)CCNC2=S)cc1	MIC	-	-	H37Rv	-	5 µg/mL
COc1ccc(C2SCC(=O)N2NC(=O)c2ncc3cc(C(F)(F)F)ccc3n2)c(O)c1	MIC	visual reading	-	H37Rv	-	2.42 µM
CC(C)=CCC1(C)SC(=O)C(C)=C1O	MIC90	-	-	H37Rv	-	>300 µM
O=C1c2ccccc2C(=O)c2sc(Nc3cc(Cl)ccc3Cl)nc21	MIC	BACTEC	-	H37Rv	-	1.6 µg/mL
Cc1noc(C)c1-n1sc(=O)n(CC2CC2)c1=O	MIC	broth dilution	-	H37Rv	-	25 µg/mL
COc1ccc(/C=N\n2c(Cc3cccs3)n[nH]c2=S)cc1O	inhibition	-	-	H37Rv (ATCC 27294)	6.25 µg/mL	44%
CN1C(=O)Cn2c(nn(CCN3CCOCC3)c(=O)c2=O)-c2cc(Cl)ccc21	inhibition	BACTEC	-	H37Rv	12.5 µg/mL	11%
O=c1sn(-c2ccc([N+](=O)[O-])cc2Cl)c(=O)n1C1Cc2ccccc2C1	MIC	broth dilution	-	H37Rv	-	12.5 µg/mL
C=CC12c3c4cc(OC)cc3OC1C(OC(=O)c1ccc(-c3ccccc3)cc1)CCC2CC4	inhibition	BACTEC	-	H37Rv	12.5 µg/mL	25%
CN1/C(=C/C(=O)NN)N(C)c2ncccc21	MIC	-	-	H37Rv	-	500 µg/mL
Cl.Cl.O=C(Nc1cccc(C(=O)Nc2ccc(C3=NCCN3)cc2)c1)c1ccc(C2=NCCN2)cc1	inhibition	BACTEC	-	H37Rv	12.5 µg/mL	95%
Cn1cccc2nc(CC(=O)NN)nc1-2	MIC	-	-	193	-	250 µg/mL
Cc1ccc(C)c2sc3cc(=O)ccc-3nc12	MIC	resazurin	-	H37Rv	-	6.25 µg/mL
CO[C@H]1/C=C/O[C@@]2(C)Oc3c(C)c(O)c4c(=O)c(c5oc6cc(N7CCC7)cc(=O)c6nc5c4c3=C2O)NC(=O)/C(C)=C\C=C\[C@H](C)[C@H](O)[C@@H](C)[C@@H](O)[C@@H](C)[C@H](OC(C)=O)[C@@H]1C	MIC	-	-	H37Rv	-	0.008 µg/mL
O=[N+]([O-])c1ccccc1S(=O)(=O)c1ccccc1[N+](=O)[O-]	MIC	BACTEC	-	H37Rv	-	≥12.5 µg/mL
N#Cc1ccc(/C=N\n2c(Cc3cccs3)n[nH]c2=S)cc1	inhibition	-	-	H37Rv (ATCC 27294)	6.25 µg/mL	58%

Repeating the final 5 entries:

Cn1cccc2nc(CC(=O)NN)nc1-2 ; measure: MIC ; strain: 193 ; result: 250 µg/mL
Cc1ccc(C)c2sc3cc(=O)ccc-3nc12 ; measure: MIC ; read by: resazurin ; strain: H37Rv ; result: 6.25 µg/mL
CO[C@H]1/C=C/O[C@@]2(C)Oc3c(C)c(O)c4c(=O)c(c5oc6cc(N7CCC7)cc(=O)c6nc5c4c3=C2O)NC(=O)/C(C)=C\C=C\[C@H](C)[C@H](O)[C@@H](C)[C@@H](O)[C@@H](C)[C@H](OC(C)=O)[C@@H]1C ; measure: MIC ; strain: H37Rv ; result: 0.008 µg/mL
O=[N+]([O-])c1ccccc1S(=O)(=O)c1ccccc1[N+](=O)[O-] ; measure: MIC ; read by: BACTEC ; strain: H37Rv ; result: ≥12.5 µg/mL
N#Cc1ccc(/C=N\n2c(Cc3cccs3)n[nH]c2=S)cc1 ; measure: inhibition ; strain: H37Rv (ATCC 27294) ; tested at: 6.25 µg/mL ; result: 58%